Measured values from several laboratories, pooled; numbers as filed in NIAID ChemDB.

Common to all: tests in culture; agent: HIV-1; cell line: PBMC; endpoint: EC50

ECn: concentration that inhibits the pathogen or its effect by n%. Conditions beyond the fields shown may differ between rows. An empty or dashed field is not shown.

structure	strain	mutations	method	value
Cc1cn([C@H]2C[C@H](N=[N+]=[N-])[C@@H](CO)O2)c(=O)[nH]c1=O	Ba-L Laboratory isolate	-	p24	0.011 µM
Cc1cn([C@H]2C[C@H](F)[C@@H](CO)O2)c(=S)[nH]c1=O	-	-	syncytia	0.5 µM
Nc1nc(=O)n([C@@H]2CO[C@H](CO)S2)cc1F	HXB2D	-	p24	1 µM
Cc1cn([C@H]2C[C@H](N=[N+]=[N-])[C@@H](CO)O2)c(=O)[nH]c1=O	-	-	RT activity	0.002 µM
CC(C)(C)NC(=O)[C@@H]1C[C@@H]2CCCC[C@@H]2CN1C[C@@H](O)[C@H](Cc1ccccc1)NC(=O)[C@H](CC(N)=O)NC(=O)c1ccc2ccccc2n1	Ba-L Laboratory isolate	-	p24	0.014 µM
COC(=O)[C@H](Cc1c[nH]c2ccccc12)NP(=O)(O)OC[C@H]1O[C@@H](n2cc(C)c(=O)[nH]c2=O)C[C@@H]1N=[N+]=[N-]	LAI	-	XTT	0.3 µM
c1ccc(CNCc2ccc(CN3CCCNCCNCCCNCC3)cc2)nc1	BaL	-	p24	>6.25 µM
Nc1ccn([C@H]2C[C@@](F)(CC(F)(F)P(=O)(O)O)CO2)c(=O)n1	-	-	RT activity	>100 µM
CN(C[C@@H](CCN1CCC2(CC1)CC(=O)c1ccccc12)c1cccc(Cl)c1)S(=O)(=O)c1ccccc1	YU-2 (M-tropic)	-	p24	<1.5 µM
CC[C@H]1OC(=O)[C@H](C)[C@@H](O[C@H]2C[C@@](C)(OC)[C@@H](O)[C@H](C)O2)[C@H](C)[C@@H](O[C@@H]2O[C@H](C)C[C@H](N(C)C)[C@H]2O)[C@](C)(OC)C[C@@H](C)C(=O)[C@H](C)[C@@H](O)[C@]1(C)O	LAV	-	RT activity	<600 µM
CC(C)CN(C[C@@H](O)[C@H](Cc1ccccc1)NC(=O)O[C@H]1CCOC1)S(=O)(=O)c1ccc(N)cc1	ERS104pre	-	p24 / luminescence	0.0338 µM
CC[C@H]1OC(=O)[C@H](C)[C@@H](O[C@H]2C[C@@](C)(OC)[C@@H](O)[C@H](C)O2)[C@H](C)[C@@H](O[C@@H]2O[C@H](C)C[C@H](N(C)C)[C@H]2O)[C@](C)(O)C[C@@H](C)C(=O)[C@H](C)[C@@H](O)[C@]1(C)O	LAV	-	RT activity	<1000 µg/mL
Nc1ncnc2c1ncn2[C@@H]1C[C@@H](O)[C@H](CO)O1	LAI	-	RT activity	>10 µM
Nc1nc2c(ncn2[C@H]2C[C@@](F)(CC(F)(F)P(=O)(O)O)CO2)c(=O)[nH]1	-	-	RT activity	55.7 µM
Nc1ccn([C@H]2C=C[C@@H](CO)O2)c(=O)n1	LAV	-	-	0.005 µM
Clc1ccc(-n2cccc2)cc1	IIIB	-	p24	>80 µg/mL
CC(C)CN(C[C@@H](O)[C@H](Cc1ccccc1)NC(=O)O[C@H]1CCOC1)S(=O)(=O)c1ccc(N)cc1	Clinical isolate	PR-L10I K14R R41K M46L I54V L63P A71V V82A L90M I93L	p24	0.16 µM
Cc1cn([C@@H]2CC[C@H](CO)O2)c(=O)[nH]c1=O	LAI	-	RT activity	>100 µM
O=c1ccn([C@H]2C[C@@](F)(CC(F)(F)P(=O)(O)O)CO2)c(=O)[nH]1	-	-	RT activity	>100 µM
COC(=O)[C@@H](Cc1ccccc1)NC(=O)OC[C@H]1O[C@@H](n2cc(C)c(=O)[nH]c2=O)C[C@@H]1N=[N+]=[N-]	LAI	-	XTT	2 µM
Cc1cn([C@H]2C[C@H](N=[N+]=[N-])[C@@H](CO)O2)c(=O)[nH]c1=O	8791 CLADE A CLADE A	-	p24	0.007 µM
Cc1cn([C@H]2C[C@H](N=[N+]=[N-])[C@@H](CO)O2)c(=O)[nH]c1=O	-	-	syncytia	0.1 µM
Nc1nc(=O)n([C@H]2CO[C@@H](CO)S2)cc1F	HXB2D (RT-M184V)	RT-M184V	p24	2 µM
Cc1cn([C@H]2C[C@H](N=[N+]=[N-])[C@@H](CO)O2)c(=O)[nH]c1=O	BaL	-	p24	0.0225 µM
CCO/N=C(\c1ccc(Br)cc1)C1CCN(C2(C)CCN(C(=O)c3c(C)cc[n+]([O-])c3C)CC2)CC1	R5-06(PR-V77I R5 clinical isolate	PR-V77I	p24	0.0021 µM
CCN(C(=O)OCc1ccccc1)C1CCN(CCC(CN(C)S(=O)(=O)c2ccccc2)c2ccccc2)CC1	YU-2 (M-tropic)	-	p24	<12.5 µM
COc1ccc(S(=O)(=O)N(CC(C)C)C[C@@H](O)[C@H](Cc2ccccc2)NC(=O)O[C@H]2CO[C@@H]3O[C@H]4OCC[C@H]4[C@@H]32)cc1	ERS104pre	-	p24 / luminescence	0.3474 µM
Nc1ccn([C@@H]2CO[C@H](CO)S2)c(=O)n1	HXB2D	-	p24	1 µM
COC(=O)[C@H](Cc1ccccc1)NP(=O)(O)OC[C@H]1O[C@@H](n2cc(C)c(=O)[nH]c2=O)C[C@@H]1N=[N+]=[N-]	LAI	-	XTT	0.18 µM
CN(C[C@@H](CCN1CCC2(CC1)CS(=O)c1ccccc12)c1ccc(Cl)c(Cl)c1)S(=O)(=O)c1ccccc1	YU-2 (M-tropic)	-	p24	<12.5 µM
Cc1cn([C@@H]2C[C@H](O)[C@H](CO)O2)c(=O)[nH]c1=O	LAI	-	RT activity	>10 µM

A second listing of 2 rows from above:

structure | strain | mutations | method | value
Nc1nc(=O)n([C@H]2CO[C@@H](CO)S2)cc1F | HXB2D (RT-M184V) | RT-M184V | p24 | 2 µM
CN(C[C@@H](CCN1CCC2(CC1)CC(=O)c1ccccc12)c1cccc(Cl)c1)S(=O)(=O)c1ccccc1 | YU-2 (M-tropic) | - | p24 | <1.5 µM